Pooled drug test results. Numbers come from NIAID ChemDB, via PubChem.

All rows: whole-cell or culture tests; agent: Mycobacterium smegmatis; endpoint: MIC

Rows are shuffled and stem from different studies. Two numbers with a dash give a range or band. An empty or dashed field is not shown.

structure,strain or isolate,method,result
CCCCCCCCCCCCCCCCCCCCCCCCCCCCCCOC(=O)NC(C)(CCC(=O)O)CCC(=O)O,,,70 µg/mL
COc1c(N2CCC(n3c(=O)[nH]c4cc(Cl)ccc43)CC2)c(F)c([N+](=O)[O-])c2c(=O)c(C(=O)O)cn(C3CC3)c12,ATCC 14468,agar,10.93 µM
CN(C)C(=O)CC(CSc1ccccc1)Nc1c(C(=O)N/N=C/c2ccc(F)cc2)cnc2cc(F)ccc12,ATCC 19420,resazurin,10 µg/mL
CCCCCCCCCCCCCCCOc1cc(-c2cccc(F)c2)nc2ccccc12,ATCC 607,,125 µg/mL
NCCCNCc1ccc(Nc2ccn(CCOCCN3CCC(N)CC3)c(=O)n2)nc1,,turbidity,32–128 µg/mL
CCCC[C@@H](CN[C@@H](CN)CCCCNC)NCc1cccc2ccccc12,mc2155,absorbance,50 µM
COc1c(N2CCC(N3CCCCC3)CC2)c(F)cc2c(=O)c(C(=O)O)cn(C3CC3)c12,ATCC 14468,agar,14.09 µM
CO[C@H]1/C=C/O[C@@]2(C)Oc3c(C)c(O)c4c(O)c(cc(O)c4c3C2=O)NC(=O)/C(C)=C\C=C\[C@H](C)[C@H](O)[C@@H](C)[C@@H](O)[C@@H](C)[C@H](OC(C)=O)[C@@H]1C,mc155,,25 µg/mL
CSc1ccccc1/C=N/NC(=O)c1cnc2cccc(C(F)(F)F)c2c1NC(CSc1ccccc1)CC(=O)N(C)C,ATCC 19420,resazurin,>100 µg/mL
NC1CCN(CCCCn2ccc(Nc3cc(C(=O)NC4CNC4)ccn3)nc2=O)CC1,,turbidity,<8 µg/mL
CCCCCCCCCCCCCCCC(=O)NC(CCC(=O)O)(CCC(=O)O)CCC(=O)O,mc155,,36 µg/mL
NCCCNCc1ccnc(Nc2ccn(CCCCN3CCC(N)CC3)c(=O)n2)c1,,turbidity,<8 µg/mL
COc1ccccc1-c1[nH]c2ccccc2c1C1=C(Br)C(=O)NC1=O,SG987,,12.5 µg/mL
CCCCCCCCCCOc1cc(-c2ccc(F)cc2)nc2ccccc12,ATCC 607,,250 µg/mL
CCCCCCCC1SCC(=O)N1NC(=O)c1ccncc1,,agar,50 µg/mL
NCCC[C@H](N)CC(=O)N[C@H]1CNC(=O)[C@H]([C@H]2C[C@H](O)NC(N)=N2)NC(=O)/C(=C/NC(N)=O)NC(=O)[C@H](CO)NC(=O)[C@H](CO)NC1=O,rabinowitchi 16,,5 µg/mL
Cc1[nH]c2ccccc2c1C1=C(Br)C(=O)N(C)C1=O,SG987,,50 µg/mL
CCCCCCCCOc1cc(-c2ccccc2F)nc2ccccc12,ATCC 607,,500 µg/mL
CN(C)C(=O)CC(CSc1ccccc1)Nc1c(C(=O)N/N=C/c2ccccc2F)cnc2cc(F)ccc12,ATCC 19420,resazurin,10 µg/mL
C=C1C(=O)[C@@]23C(=O)O[C@H]4CCC(C)(C)[C@H]5C(=O)OC[C@@]45[C@@H]2CC[C@@H]1[C@H]3OC(=O)c1ccccc1,ATCC 19420,resazurin,8 µg/mL
CCCCCCCCCCCCCCCCCCCCNC(=O)NC(CCC(=O)O)(CCC(=O)O)CCC(=O)O,mc155,,36 µg/mL
CCc1[nH]c2ccccc2c1C1=C(Br)C(=O)N(C)C1=O,SG987,,50 µg/mL
Cc1nc(-c2ccc(F)cc2)sc1-c1cn2ccccc2n1,mc2155,broth dilution / absorbance,27.9 µg/mL
CC[C@H](C)[C@@H](NC(=O)[C@@H](CCC(=O)O)NC(=O)[C@H](Cc1cnc[nH]1)NC(=O)[C@H](CC(C)C)NC(=O)[C@H](N)Cc1ccccc1)C(=O)N[C@H]1CCCCNC1=O,,,0.78 µg/mL
CCCCCCCCCN(CCCCCCCCC)C(=O)NC(CCC(=O)O)(CCC(=O)O)CCC(=O)O,mc155,,105 µg/mL
CCCCCCCCCCCCCOc1cc(-c2cccc(F)c2)nc2ccccc12,ATCC 607,,125 µg/mL
C=C1C(=O)[C@@]23C(=O)O[C@H]4CCC(C)(C)[C@H]5[C@H](O)OC[C@@]45[C@@H]2CC[C@@H]1[C@H]3O,ATCC 19420,resazurin,>64 µg/mL
CCCCCCCCC/C=C/c1cc(=O)c2ccccc2n1C,ATCC 19420,MTT,3.2 µM
CCCCCCCC1OC(c2ccncc2)=NN1C(C)=O,,agar,>100 µg/mL
C[C@](N)(CO)C(=O)NCc1ccc(Nc2ccn(CCCCN3CCC(N)CC3)c(=O)n2)nc1,,turbidity,8–32 µg/mL
NNC(=O)c1ccncc1,MC^2 832,,60 µg/mL
CN(C)C(=O)CC(CSc1ccccc1)Nc1c(C(=O)N/N=C/c2ccc(OC(F)(F)F)cc2)cnc2cccc(C(F)(F)F)c12,ATCC 19420,resazurin,>100 µg/mL
C=C1C(=O)[C@@]23C(=O)O[C@H]4CCC(C)(C)[C@H]5[C@H](O)OC[C@@]45[C@@H]2CC[C@@H]1[C@H]3OC(=O)c1ccccc1,ATCC 19420,resazurin,4 µg/mL
Cc1nc(-c2ccc(Cl)cc2)sc1-c1cn2cc(Br)ccc2n1,mc2155,broth dilution / absorbance,>50 µg/mL
CCCCCCCCCCCCCCCC(=O)NC1CNC(=O)C(C2CCN=C(N)N2)NC(=O)/C(=C/NC(N)=O)NC(=O)C(CO)NC(=O)C(CO)NC1=O,rabinowitchi 33,,5 µg/mL
CCCCCCCCCCCCCCCCCCNC(=O)NC(CCC(=O)O)(CCC(=O)O)CCC(=O)O,mc155,,3 µg/mL
COc1c(N2COCC2(C)C)c(F)cc2c(=O)c(C(=O)O)cn(C3CC3)c12,ATCC 14468,agar,16.61 µM
C=C1C(=O)[C@@]23C(=O)O[C@H]4CCC(C)(C)[C@H]5[C@H](O)OC[C@@]45[C@@H]2CC[C@@H]1[C@H]3OC(=O)c1cnccn1,ATCC 19420,resazurin,>64 µg/mL
COC(=O)/C=C/C(=O)c1ccc(C(C)(C)C)cc1,,,8 µg/mL
Cc1nc(-c2ccc(F)cc2)sc1-c1cn2cc(Br)ccc2n1,mc2155,broth dilution / absorbance,20.8 µg/mL
CCCCCCCCCCCC(CCCCCCCCCCC)NC(=O)NC(CCC(=O)O)(CCC(=O)O)CCC(=O)O,mc155,,106 µg/mL
CC(C)CCOc1ccc(NC(=S)Nc2ccc(OCCC(C)C)cc2)cc1,mc2155,,>200 µg/mL
COc1c(N2CCN(C)C(c3ccccc3)C2)c(F)c([N+](=O)[O-])c2c(=O)c(C(=O)O)cn(C3CC3)c12,ATCC 14468,agar,6.3 µM
C[C@H]1[C@H](C)CC[C@]2(C(=O)O)CC[C@]3(C)C(CC[C@@H]4[C@@]5(C)C[C@H](O)CC(C)(C)[C@@H]5CC[C@]43C)[C@H]12,,resazurin,>200 µg/mL
Cc1ccc(-c2nc(C)c(-c3cn4cc(Cl)ccc4n3)s2)cc1,mc2155,broth dilution / absorbance,>50 µg/mL
CCCCCc1[nH]c2ccccc2c1C1=C(Br)C(=O)N(C)C1=O,SG987,,12 µg/mL
CCCC[C@@H](CN[C@H](CN)CCN)NCc1cccc2ccccc12,mc2155,absorbance,25 µM
CCCCCCCCCCCCCCCOc1cc(-c2ccccc2F)nc2ccccc12,ATCC 607,,250 µg/mL
C=C1C(=O)[C@@]23C(=O)O[C@H]4CCC(C)(C)[C@H]5C(=O)OC[C@@]45[C@@H]2CC[C@@H]1[C@H]3OC(=O)c1cc2ccccc2[nH]1,ATCC 19420,resazurin,8 µg/mL
Cc1nc(-c2ccc(Cl)cc2)sc1-c1cn2cc(Cl)ccc2n1,mc2155,broth dilution / absorbance,>50 µg/mL

The first 5 rows once more:

{"structure": "CCCCCCCCCCCCCCCCCCCCCCCCCCCCCCOC(=O)NC(C)(CCC(=O)O)CCC(=O)O", "result": "70 µg/mL"}
{"structure": "COc1c(N2CCC(n3c(=O)[nH]c4cc(Cl)ccc43)CC2)c(F)c([N+](=O)[O-])c2c(=O)c(C(=O)O)cn(C3CC3)c12", "strain or isolate": "ATCC 14468", "method": "agar", "result": "10.93 µM"}
{"structure": "CN(C)C(=O)CC(CSc1ccccc1)Nc1c(C(=O)N/N=C/c2ccc(F)cc2)cnc2cc(F)ccc12", "strain or isolate": "ATCC 19420", "method": "resazurin", "result": "10 µg/mL"}
{"structure": "CCCCCCCCCCCCCCCOc1cc(-c2cccc(F)c2)nc2ccccc12", "strain or isolate": "ATCC 607", "result": "125 µg/mL"}
{"structure": "NCCCNCc1ccc(Nc2ccn(CCOCCN3CCC(N)CC3)c(=O)n2)nc1", "method": "turbidity", "result": "32–128 µg/mL"}